Results deposited as PubChem BioAssay AID624099 (ICCB-Longwood, 2012).

- Aim: 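Host factors E2 relies on to silence an HPV18 LCR reporter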 (primary screen)
- Cell system: human C33A cervical carcinoma cells (HPV-negative) stably expressing BPV1 E2 and an HPV18 LCR luciferase reporter
- Reagent: siRNA pool against human genes, 40 nM
- Duration: 72 h
- Read-out: 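HPV18 LCR reporter light per well, converted to plate-wise z-scores that exclude control wells, and averaged over triplicate plates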
- Scale: mean z-score and z-score: higher = stronger reporter signal, weaker E2 silencing
- Hit rule: 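Hit if mean z-score reaches 2 and two or more of three replicate z-scores also reach 2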
This is one part, drawn at random, of about 21,000 reagents. Over the whole deposit, 497 (2.4%) got an active call. 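Higher z means weaker E2 silencing; only reporter increases were scored, and knock-downs that hurt cell survival may mask genuine repressor factors.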 Reagents against one gene are numbered here.

| target gene | reagent no. | mean z-score | z-score, replicate A | z-score, replicate B | z-score, replicate C | activity call |
| --- | --- | --- | --- | --- | --- | --- |
| LOC285253 (retired record) | 1 | 0.48 | 0.66 | 0.4 | 0.38 | inactive |
| ZNF91 (zinc finger protein 91) | 1 | 1.14 | 1.2 | 1 | 1.21 | inactive |
| CHRD (chordin) | 1 | -0.65 | -0.93 | -0.52 | -0.5 | inactive |
| PIP4K2A (phosphatidylinositol-5-phosphate 4-kinase type 2 alpha) | 1 | -0.74 | -1.16 | -0.46 | -0.62 | inactive |
| G3BP1 (G3BP stress granule assembly factor 1) | 1 | 0.33 | 0.27 | 0.45 | 0.25 | inactive |
| COMMD9 (COMM domain containing 9) | 1 | -1.48 | -1.24 | -1.3 | -1.9 | inactive |
| COMMD9 (COMM domain containing 9) | 2 | 0.24 | 0.21 | 0.36 | 0.15 | inactive |
| PPARGC1A (PPARG coactivator 1 alpha) | 1 | -1.23 | -1.24 | -1.14 | -1.3 | inactive |
| ITGBL1 (integrin subunit beta like 1) | 1 | -0.22 | -0.39 | -0.41 | 0.14 | inactive |
| HSD3B1 | 1 | 0.96 | 0.59 | 1.1 | 1.21 | inactive |
| OXSR1 (oxidative stress responsive kinase 1) | 1 | 0.62 | 0.49 | 0.39 | 0.98 | inactive |
| ALG10B (ALG10 alpha-1,2-glucosyltransferase B) | 1 | -0.81 | -0.31 | -0.91 | -1.2 | inactive |
| LOC390566 (retired record) | 1 | 3.25 | 4.4 | 2.91 | 2.45 | active |
| LOC284600 | 1 | 0.37 | 0.52 | -0.04 | 0.61 | inactive |
| PEMT (phosphatidylethanolamine N-methyltransferase) | 1 | -0.2 | -0.22 | -0.25 | -0.13 | inactive |
| MAP1LC3BP1 | 1 | 1.62 | 1.52 | 1.53 | 1.82 | inactive |
| SETP14 (SET pseudogene 14) | 1 | 0.03 | 0.31 | -0.18 | -0.03 | inactive |
| IGHV3OR16-12 (immunoglobulin heavy variable 3/OR16-12 (non-functional)) | 1 | -1.16 | -1.12 | -1.13 | -1.24 | inactive |
| LINC02011 (long independently transcribed non-coding RNA 2011) | 1 | 1.03 | 1.55 | 0.59 | 0.95 | inactive |
| SPATA31D5P (SPATA31 subfamily D member 5, pseudogene) | 1 | -0.01 | 0.06 | 0.09 | -0.19 | inactive |
| TMEM106C (transmembrane protein 106C) | 1 | 0.67 | 1.01 | 0.51 | 0.48 | inactive |
| TM4SF20 (transmembrane 4 L six family member 20) | 1 | 0.13 | 0.38 | 0.4 | -0.39 | inactive |
| CCRL2 (C-C motif chemokine receptor like 2) | 1 | 0.3 | 0.3 | 0.41 | 0.2 | inactive |
| ABHD12B (abhydrolase domain containing 12B) | 1 | -0.32 | -0.42 | -0.36 | -0.17 | inactive |
| KCTD2 (potassium channel tetramerization domain containing 2) | 1 | -0.41 | -0.87 | -0.13 | -0.24 | inactive |

As entered above:
Under “mean z-score”, ZNF91 (zinc finger protein 91) reads 1.14
LOC390566 (retired record), z-score, replicate B = 2.91

Continued.
| target gene | reagent no. | mean z-score | z-score, replicate A | z-score, replicate B | z-score, replicate C | activity call |
| --- | --- | --- | --- | --- | --- | --- |
| MIDEAS (mitotic deacetylase associated SANT domain protein) | 1 | 0.74 | 0.76 | 0.82 | 0.63 | inactive |
| GRHL2 (grainyhead like transcription factor 2) | 1 | -0.21 | -0.45 | 0.05 | -0.24 | inactive |
| PPP4R1 (protein phosphatase 4 regulatory subunit 1) | 1 | 2.16 | 2 | 2.13 | 2.36 | active |
| ADH1A (alcohol dehydrogenase 1A (class I), alpha polypeptide) | 1 | -0.09 | 0.14 | -0.26 | -0.14 | inactive |
| CRNDE (colorectal neoplasia differentially expressed) | 1 | 0.78 | 1.26 | 0.14 | 0.94 | inactive |
| CYP7A1 (cytochrome P450 family 7 subfamily A member 1) | 1 | 0.92 | 0.73 | 0.87 | 1.16 | inactive |
| CILP2 (cartilage intermediate layer protein 2) | 1 | 2.03 | 2.22 | 1.8 | 2.08 | active |
| MUC15 (mucin 15, cell surface associated) | 1 | 0.69 | 0.81 | 0.6 | 0.66 | inactive |
| ZNF85 (zinc finger protein 85) | 1 | -0.86 | -0.95 | -0.86 | -0.77 | inactive |
| RASSF8 (Ras association domain family member 8) | 1 | 0.65 | 0.78 | 0.65 | 0.51 | inactive |
| SFR1 (SWI5 dependent homologous recombination repair protein 1) | 1 | 0.34 | 0.3 | 0.39 | 0.31 | inactive |
| CBY1 (chibby 1, beta catenin antagonist) | 1 | 1.92 | 1.95 | 2.05 | 1.75 | inactive |
| THAP7-AS1 (THAP7 antisense RNA 1) | 1 | -0.1 | -0.06 | -0.11 | -0.14 | inactive |
| CGB5 (chorionic gonadotropin subunit beta 5) | 1 | -0.22 | -0.2 | -0.16 | -0.3 | inactive |
